Values from PubChem BioAssay AID624099 (ICCB-Longwood, 2012)

- Test: 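Host factors E2 relies on to silence an HPV18 LCR reporter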 (primary screen)
- System: human C33A cervical carcinoma cells (HPV-negative) stably expressing BPV1 E2 and an HPV18 LCR luciferase reporter
- Reagents: siRNA pool against human genes, 40 nM
- Duration: 72 h
- Measured: 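HPV18 LCR reporter light per well, converted to plate-wise z-scores that exclude control wells, and averaged over triplicate plates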
- Scale: mean z-score and z-score: higher = stronger reporter signal, weaker E2 silencing
- Call rule: 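Hit if mean z-score reaches 2 and two or more of three replicate z-scores also reach 2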
Shown is one part, drawn at random, of about 21,000 reagents. 497 of them (2.4%) were called active. 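Higher z means weaker E2 silencing; only reporter increases were scored, and knock-downs that hurt cell survival may mask genuine repressor factors.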 Entries without a mark were called inactive. Reagent sequences are not shown.

After knock-down of CERS6 (ceramide synthase 6) [SID134329676], the record shows mean z-score 0.28; z-score, replicate A = 0.24; z-score, replicate B = 0.37; z-score, replicate C = 0.21. Silencing of SLC30A8 [SID134312575] gave: mean z-score 0.58; z-score, replicate A = 0.63; z-score, replicate B = 0.67; z-score, replicate C = 0.44. Against ERG (ETS transcription factor ERG) [SID134310132], the values are mean z-score -0.95; z-score, replicate A = -1.31; z-score, replicate B = -0.74; z-score, replicate C = -0.8. EMID1 (EMI domain containing 1) [SID134319392] scored mean z-score -0.56; z-score, replicate A = -0.32; z-score, replicate B = -0.28; z-score, replicate C = -1.09. For SNTB1 (syntrophin beta 1) [SID134317360], the values are mean z-score 0.68; z-score, replicate A = 0.66; z-score, replicate B = 0.71; z-score, replicate C = 0.67. Knock-down of ZNF33A (zinc finger protein 33A) [SID134317029] resulted in: mean z-score 0.47; z-score, replicate A = 0.43; z-score, replicate B = 0.25; z-score, replicate C = 0.72.

After knock-down of FTH1P14 (ferritin heavy chain 1 pseudogene 14) [SID134326222] the results were mean z-score 1.64; z-score, replicate A = 1.52; z-score, replicate B = 1.61; z-score, replicate C = 1.78. For LOC387720 (retired record) [SID134328227] the deposit lists mean z-score -1.76; z-score, replicate A = -1.47; z-score, replicate B = -1.94; z-score, replicate C = -1.86. Knock-down of C10orf88 (chromosome 10 open reading frame 88) [SID134318666] came out at: mean z-score -1.62; z-score, replicate A = -1.12; z-score, replicate B = -2.01; z-score, replicate C = -1.71. COL11A2 (collagen type XI alpha 2 chain) [SID134317581] gave mean z-score -1.06; z-score, replicate A = -0.86; z-score, replicate B = -1.11; z-score, replicate C = -1.2. LOC389669 (retired record) [SID134328017] showed mean z-score -0.52; z-score, replicate A = -0.88; z-score, replicate B = -0.42; z-score, replicate C = -0.26. Knock-down of CRACDL (CRACD like) [SID134329523] gave: mean z-score -0.75; z-score, replicate A = -1.09; z-score, replicate B = -0.39; z-score, replicate C = -0.76.

SCHIP1 (schwannomin interacting protein 1) [SID134324178] gave mean z-score 0.18; z-score, replicate A = 0.11; z-score, replicate B = 0.42; z-score, replicate C = 0.01. Knock-down of CALHM2 (calcium homeostasis modulator family member 2) [SID134320794] came out at: mean z-score 0.7; z-score, replicate A = 0.9; z-score, replicate B = 0.93; z-score, replicate C = 0.28.

2 entries already listed, ordered by “z-score, replicate B”, highest first:
SLC30A8 [SID134312575] | mean z-score = 0.58; z-score, replicate A = 0.63; z-score, replicate B = 0.67; z-score, replicate C = 0.44
CERS6 (ceramide synthase 6) [SID134329676] | mean z-score = 0.28; z-score, replicate A = 0.24; z-score, replicate B = 0.37; z-score, replicate C = 0.21
